Measured values from several laboratories, pooled; numbers as filed in NIAID ChemDB.

MIC bound comes from a single tested concentration. ICn is the concentration giving n% inhibition. MIC50, MIC90 and the like: level of inhibition, or share of isolates inhibited. Neighbouring rows are from separate reports. Percent inhibition refers to the dose given; in toxicity tests it is the harm to the cells. An empty or dashed field is not shown.

smiles,measure,protein,strain,species,kind,method,tested at,result
CSC(=S)NN=C1CCCCC1,MIC,-,PZA-R,Mycobacterium tuberculosis,culture,-,-,12.8 µg/mL
CCCCC(CC)CN1CN(CC(CC)CCCC)CC(C)(NCCNC(C)Cc2ccc(Cl)cc2)C1,MIC,-,-,Mycobacterium tuberculosis,culture,-,-,50 µM
CC(=O)N[C@H]1[C@@H](O[C@@H]2O[C@H](C[C@@H](O)[C@H]3O[C@@H](n4ccc(=O)[nH]c4=O)[C@H](O)[C@@H]3O)[C@H](O)[C@H](O)[C@H]2NC(=O)/C=C/CC(C)C)O[C@H](CO)[C@@H](O)[C@@H]1O,MIC bound,-,H37Rv,Mycobacterium tuberculosis,culture,BACTEC,-,≤12.5 µg/mL
COCN1CCN(COC)C1=O,MIC,-,H37Rv,Mycobacterium tuberculosis,culture,-,-,>100 µg/mL
COc1ccc(N2CCN(c3cncc(-c4cccc(OC)c4OC)n3)CC2)cc1OC,inhibition,UL97 kinase,-,Cytomegalovirus,target,-,10 µM,>15%
Nc1ccc(S(=O)(=O)c2cccc(N)c2)cc1,MIC,-,H37Rv,Mycobacterium tuberculosis,culture,-,-,>100 µg/mL
c1ccc(C(CCNCCNCC(c2ccccc2)c2ccccc2)c2ccccc2)cc1,MIC,-,-,Mycobacterium tuberculosis,culture,-,-,37.5 µM
CC1=NN(c2cc(S(=O)(=O)O)ccc2Cl)C(=O)C1N=Nc1ccccc1,MIC bound,-,H37Rv,Mycobacterium tuberculosis,culture,BACTEC,-,>12.5 µg/mL
CC(=O)c1ccc(N2CCN(c3cncc(-c4cccc(C)c4)n3)CC2)cc1,IC50,UL97 kinase,-,Cytomegalovirus,target,-,-,<100 µM
Cl.Nc1ccc(S(=O)(=O)CCCS(=O)(=O)c2ccc(N)cc2)cc1,MIC,-,H37Rv,Mycobacterium tuberculosis,culture,-,-,>100 µg/mL
Fc1ccc(N2CCCCC2)c(NC(=S)c2ccncc2)c1,inhibition,CaMKIV,-,-,host protein,kinase activity,10 µM,4%
O=C(Nc1ccc(NC(=O)c2cccc(S(=O)(=O)[O-])c2)c2c1C(=O)c1ccccc1C2=O)c1cccc(S(=O)(=O)[O-])c1.[Na+].[Na+],MIC,-,H37Rv,Mycobacterium tuberculosis,culture,-,-,100 µg/mL
CCC/C(C)=N/NC(=S)SC,inhibition,-,H37Rv,Mycobacterium tuberculosis,culture,BACTEC,12.5 µg/mL,99%
c1ccc(N=Nc2ccccc2)cc1,MIC,-,H37Rv,Mycobacterium tuberculosis,culture,-,-,>100 µg/mL
Cc1cc(C)c(S(=O)(=O)O)c(C)c1Nc1ccc(Nc2c(C)cc(C)c(S(=O)(=O)O)c2C)c2c1C(=O)c1ccccc1C2=O,MIC bound,-,H37Rv,Mycobacterium tuberculosis,culture,BACTEC,-,>12.5 µg/mL
Cc1cccc(-c2cncc(N3CCN(c4cccc(C(F)(F)F)c4)CC3)n2)c1C,inhibition,UL97 kinase,-,Cytomegalovirus,target,-,10 µM,>15%
COc1cc(CO)ccc1O,MIC,-,H37Rv,Mycobacterium tuberculosis,culture,-,-,100 µg/mL
O=S(=O)(O)c1cc2cc(S(=O)(=O)O)c3nnc4cc(S(=O)(=O)O)cc5cc(S(=O)(=O)O)c(nnc6cc(S(=O)(=O)O)cc7cc(S(=O)(=O)O)c(nnc(c1)c2c3O)c(O)c76)c(O)c54,inhibition,-,H37Rv,Mycobacterium tuberculosis,culture,BACTEC,12.5 µg/mL,17%
CC1SC(=Nc2ccc(S(N)(=O)=O)cc2)NC1=O,MIC,-,H37Rv,Mycobacterium tuberculosis,culture,-,-,>100 µg/mL
CCOC(=O)C(C(=NNC(=O)OC)C(=O)Nc1ccc(C(C)=O)cc1)c1cnc2ccccc2n1,MIC bound,-,H37Rv,Mycobacterium tuberculosis,culture,resazurin,-,>6.25 µg/mL
COc1cccc(N2CCN(c3cncc(-c4ccc(SC)cc4)n3)CC2)c1,inhibition,UL97 kinase,-,Cytomegalovirus,target,-,1 µM,<50%
CC(=O)N(C)c1c(Br)cc(Br)c2c1C(=O)c1ccccc1C2=O,MIC,-,H37Rv,Mycobacterium tuberculosis,culture,-,-,50 µg/mL
Fc1ccc(-c2cncc(N3CCN(c4cccc(Cl)c4)CC3)n2)cc1Cl,IC50,UL97 kinase,-,Cytomegalovirus,target,-,-,<100 µM
CCCCC(CC)CN1CN(CC(CC)CCCC)CC(C)(NCCNCCc2ccc(O)c(OC)c2)C1,MIC,-,-,Mycobacterium tuberculosis,culture,-,-,12.5 µM
NC(=Nc1ccc(Br)cc1)/N=C(\N)Nc1cccc(S(=O)(=O)Nc2ncc(Cl)cn2)c1,inhibition,-,-,Mycobacterium tuberculosis,culture,resazurin,6.25 µg/mL,3%
CCCCCCCCCc1c(N)[nH]c(=S)[nH]c1=O,MIC,-,H37Rv,Mycobacterium tuberculosis,culture,-,-,>100 µg/mL
Fc1ccc(CCNCCNC(c2ccccc2)c2ccccc2)cc1,MIC,-,-,Mycobacterium tuberculosis,culture,-,-,50 µM
COc1cc(O)c(Cc2ccccc2O)c(O)c1C(=O)CCc1ccccc1,inhibition,-,H37Rv,Mycobacterium tuberculosis,culture,BACTEC,12.5 µg/mL,56%
CCCCN(CCNC/C=C(\C)CCC=C(C)C)Cc1ccccc1,MIC,-,-,Mycobacterium tuberculosis,culture,-,-,25 µM
COc1ccc2c(c1)n([O-])c1ccccc1[n+]2=O,MIC,-,ETA-R,Mycobacterium tuberculosis,culture,-,-,0.8 µg/mL
CCCCCCCCCCCCCC(=O)O,MIC,-,H37Rv,Mycobacterium tuberculosis,culture,-,-,100 µg/mL
C(CNCC12CC3CC(CC(C3)C1)C2)NCC12CC3CC(CC(C3)C1)C2,MIC,-,-,Mycobacterium tuberculosis,culture,-,-,9.4 µM
O=C(O)C(CCCOc1ccccc1)C(=O)O,MIC,-,H37Rv,Mycobacterium tuberculosis,culture,-,-,100 µg/mL
COc1ccc(/C=C2\N=C(c3ccccc3)OC2=O)c(OC)c1C,MIC,-,H37Rv,Mycobacterium tuberculosis,culture,BACTEC,-,12.5 µg/mL
COc1ccc2[nH]cc(CCNCCNCC(C)c3ccccc3)c2c1,MIC,-,-,Mycobacterium tuberculosis,culture,-,-,50 µM
CC(=O)N/C(=C/c1ccc(O)cc1)C(=O)O,MIC,-,H37Rv,Mycobacterium tuberculosis,culture,-,-,>100 µg/mL
OCc1ccccc1Sc1ccccc1CNCCNCCc1ccc(F)cc1,MIC,-,-,Mycobacterium tuberculosis,culture,-,-,50 µM
Clc1cccc(N2CCN(c3cncc(-c4ccsc4)n3)CC2)c1,inhibition,UL97 kinase,-,Cytomegalovirus,target,-,10 µM,>15%
CCN(CC)C(=O)c1ccc(N)cc1,MIC,-,H37Rv,Mycobacterium tuberculosis,culture,-,-,>100 µg/mL
COc1cccc2c1C(=O)c1c(O)c3c(c(O)c1C2=O)CC(O)(C(C)=O)CC3OC1CC(NCC2(O)OC(C(=O)NCCCN(C)C)C(O)C2O)C(O)C(C)O1,inhibition,-,H37Rv,Mycobacterium tuberculosis,culture,BACTEC,12.5 µg/mL,99%
CCC1=CC(CC)C2C(=O)N(c3ccccc3)C1C2C(=O)O,MIC,-,H37Rv,Mycobacterium tuberculosis,culture,-,-,>100 µg/mL
COc1ccc(N2CCN(c3cncc(-c4cccs4)n3)CC2)cc1OC,IC50,UL97 kinase,-,Cytomegalovirus,target,-,-,<10 µM
O=[N+]([O-])c1ccc(O)cc1,MIC,-,H37Rv,Mycobacterium tuberculosis,culture,-,-,100 µg/mL
Cc1cc2c(c3c1c(=O)c1ccccc1n3C)C=CC(C)(C)O2,MIC,-,H37Rv,Mycobacterium tuberculosis,culture,BACTEC,-,≥12.5 µg/mL
CCOC(=O)C(CC)c1nc2ccccc2o1,MIC,-,H37Rv,Mycobacterium tuberculosis,culture,-,-,>100 µg/mL
CC(=O)N(C)c1ccc(Nc2cc(C)[nH]c3ccc4ncnc4c23)cc1,MIC bound,-,H37Rv,Mycobacterium tuberculosis,culture,BACTEC,-,>12.5 µg/mL
Clc1cccc(-c2cncc(N3CCN(c4ccccn4)CC3)n2)c1,IC50,UL97 kinase,-,Cytomegalovirus,target,-,-,<10 µM
O=C(NC(Cc1c[nH]c2ccccc12)C(=O)O)c1ccccc1[N+](=O)[O-],inhibition,-,H37Rv,Mycobacterium tuberculosis,culture,BACTEC,12.5 µg/mL,2%
C=CCc1ccc(OC)c(OC)c1,MIC90,-,341,Candida tropicalis,culture,turbidity,-,345 µg/mL
CC(=O)NC1C(O)OC(CO)C(OC2OC(CO)C(O)C(O)C2NC(=O)NCCCCCCNC(=O)n2cc(F)c(=O)[nH]c2=O)C1O,MIC bound,-,H37Rv,Mycobacterium tuberculosis,culture,BACTEC,-,≤12.5 µg/mL
OCc1ccc(I)cc1,MIC,-,H37Rv,Mycobacterium tuberculosis,culture,-,-,50 µg/mL
CCN(CC)CCNC(=O)c1cn(C)c(=O)[nH]c1=O,inhibition,-,H37Rv,Mycobacterium tuberculosis,culture,resazurin,6.25 µg/mL,-1%
COc1cccc(CNCCNC[C@]2(C)CCC[C@]3(C)c4ccc(C(C)C)cc4CC[C@@H]23)c1OC,MIC,-,-,Mycobacterium tuberculosis,culture,-,-,25 µM
Cn1c(=O)c2nc(-c3ccccc3)nnc2n(C)c1=O,inhibition,-,H37Rv,Mycobacterium tuberculosis,culture,BACTEC,12.5 µg/mL,96%
OC1c2ccccc2Oc2ccccc21,MIC,-,H37Rv,Mycobacterium tuberculosis,culture,-,-,>100 µg/mL
CSC(=S)Nc1cccc(C)n1,MIC bound,-,H37Rv,Mycobacterium tuberculosis,culture,resazurin,-,>6.25 µg/mL
c1ccc(-c2ccc(-c3ccccc3)c(-c3ccccc3)n2)cc1,MIC,-,H37Rv,Mycobacterium tuberculosis,culture,-,-,>100 µg/mL